Results on three compounds are retold here after patent US10004701B2, “Methods and compositions for treating infection” (UNIVERSITY OF ROCHESTER, priority 2012, dated 2018).

Amino acid sequences for entries named in this document (tags omitted).
UniProt P0A0K8, whole entry: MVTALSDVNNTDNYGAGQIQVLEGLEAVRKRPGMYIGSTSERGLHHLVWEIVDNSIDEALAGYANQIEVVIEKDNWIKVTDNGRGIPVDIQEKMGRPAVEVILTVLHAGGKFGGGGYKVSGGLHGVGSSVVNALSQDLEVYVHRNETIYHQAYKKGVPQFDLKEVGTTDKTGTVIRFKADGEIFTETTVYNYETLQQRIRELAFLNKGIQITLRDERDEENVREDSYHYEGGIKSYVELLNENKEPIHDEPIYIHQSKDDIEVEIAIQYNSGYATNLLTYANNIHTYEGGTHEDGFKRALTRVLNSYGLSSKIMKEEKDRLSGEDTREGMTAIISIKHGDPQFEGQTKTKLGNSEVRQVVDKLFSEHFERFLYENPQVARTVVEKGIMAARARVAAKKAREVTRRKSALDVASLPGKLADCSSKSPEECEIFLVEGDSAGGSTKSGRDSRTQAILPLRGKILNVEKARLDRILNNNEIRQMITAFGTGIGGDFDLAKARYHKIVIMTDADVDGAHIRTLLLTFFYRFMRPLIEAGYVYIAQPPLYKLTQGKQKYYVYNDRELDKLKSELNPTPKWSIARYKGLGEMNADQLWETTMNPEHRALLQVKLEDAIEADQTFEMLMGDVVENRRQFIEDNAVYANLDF
UniProt P20831, whole entry: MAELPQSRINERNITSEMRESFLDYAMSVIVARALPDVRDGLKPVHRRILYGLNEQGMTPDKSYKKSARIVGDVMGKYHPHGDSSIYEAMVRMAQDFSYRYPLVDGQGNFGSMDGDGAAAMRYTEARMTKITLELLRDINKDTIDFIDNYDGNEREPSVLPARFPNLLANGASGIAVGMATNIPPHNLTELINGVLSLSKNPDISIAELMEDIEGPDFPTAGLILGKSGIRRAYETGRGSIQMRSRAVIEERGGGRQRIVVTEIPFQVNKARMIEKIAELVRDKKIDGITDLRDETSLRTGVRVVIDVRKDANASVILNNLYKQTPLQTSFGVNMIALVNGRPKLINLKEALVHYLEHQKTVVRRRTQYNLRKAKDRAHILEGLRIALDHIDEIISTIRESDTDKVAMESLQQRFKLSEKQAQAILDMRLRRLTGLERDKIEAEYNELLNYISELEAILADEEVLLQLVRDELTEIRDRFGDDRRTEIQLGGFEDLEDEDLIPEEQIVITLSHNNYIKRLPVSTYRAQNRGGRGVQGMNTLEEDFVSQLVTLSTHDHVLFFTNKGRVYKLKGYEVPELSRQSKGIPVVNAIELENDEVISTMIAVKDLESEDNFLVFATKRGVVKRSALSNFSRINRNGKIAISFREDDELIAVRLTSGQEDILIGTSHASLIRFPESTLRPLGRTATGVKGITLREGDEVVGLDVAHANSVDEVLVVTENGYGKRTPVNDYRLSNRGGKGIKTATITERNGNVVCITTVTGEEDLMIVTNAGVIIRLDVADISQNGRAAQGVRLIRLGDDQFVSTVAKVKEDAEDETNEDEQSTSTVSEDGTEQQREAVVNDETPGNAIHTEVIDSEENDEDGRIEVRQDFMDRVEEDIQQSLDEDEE

SMILES strings stand for the structures. In brackets after ≈: the same amount, converted by molar mass. The structures given here were assigned with low confidence; some may be wrong.

The target of experiment [1] is S. aureus DNA gyrase (Staphylococcus aureus, UniProt P0A0K8+P20831). The experiment can be described thus: S. aureus DNA gyrase supercoiling assay (TopoGEN). Type of experiment: biochemical. The note with it: 37° C. 30 min.
In experiment [2] the test system is S. aureus. As to the kind of experiment: Minimum Inhibitory Concentration (MIC) testing, terfenadine study. The format is cell-based. The following applies: 16 h, MHB, strain not given.

As for `OC(c1ccccc1)(c1ccccc1)C1CCN(CCc2ccc(C(F)(F)F)cc2)CC1`, the “Gyrase IC50” value in experiment [1] came to 16.67 µg/mL. Further, the MIC (as a rule, the lowest concentration found to suppress growth) in experiment [2] was found to be 16 µg/mL (≈ 36.4 µM).

On to `CC(C)(C)c1ccc(C(O)CCN2CCC(C(O)(c3ccccc3)c3ccccc3)CC2)cc1` (stereo not drawn), for which the “Gyrase IC50” value in experiment [1] turned out to be 133.33 µg/mL. In experiment [2], the MIC amounted to 8 µg/mL (≈ 17.5 µM).

With `CC1(c2ccc(CCN3CCC(C(O)(c4ccccc4)c4ccccc4)CC3)cc2)COC1`, in experiment [1], the “Gyrase IC50” value is over 333 µg/mL. In experiment [2], the minimum inhibitory concentration (MIC) is over 256 µg/mL.
